A mixed list of measured activities; the numbers were collected in NIAID ChemDB.

Common to all: whole-cell or culture tests; organism: Hepatitis B virus; read by: PCR; measure: EC50

ECn: concentration that inhibits the pathogen or its effect by n%.

structure,cells,setting,result
CC(C)CNC(=O)c1cnn2c3c(c(=O)n(-c4ccccc4)c12)CCN(C(=O)c1ccc(Cl)c(Cl)c1)C3,HepG2.117,3 d,>5 µM
Cc1c(C(=O)C(=O)NC2(C#CC(F)(F)F)CC(O)C2)c(C)n(C)c1C(=O)Nc1ccc(F)c(C#N)c1,HepG2.2.15,-,0.1–0.999 µM
CNS(=O)(=O)NC1CCN(S(=O)(=O)c2cn(C)c(C(=O)Nc3cc(F)c(F)c(F)c3)c2F)CC1,HepAD38 cells,-,0.3–1 µM
CN(CC1CC1)S(=O)(=O)Nc1ccc2c(C(=O)Nc3ccc(F)c(Cl)c3)n(C)nc2c1,HepAD38,-,100–1000 µM
O=C(NCc1ccccc1)c1c2n(c(=O)n1-c1ccccn1)CCN(C(=O)c1ccc(Cl)c(Cl)c1)C2,HepG2.117,-,>5 µM
Cc1c(C(=O)C(=O)NC(C)(C)c2ccncn2)c(C)n(C)c1C(=O)Nc1ccc(F)c(C#N)c1,HepG2.2.15,-,0.001–0.0099 µM
COc1ccc(CNC(=O)c2c3n(c(=O)n2-c2ccc(OC(C)C)cc2)CCN(C(=O)c2ccc(Br)c(Cl)c2)C3)c(OC)c1,HepG2.117,-,0.1–0.5 µM
CCNC(=O)c1ccc(-n2c(=O)c3c(n4ncc(Cc5ccccc5)c24)CN(C(=O)c2ccc(Br)c(C#N)c2)CC3)cc1,HepG2.117,3 d,0.5–5 µM
Cn1nc2ccc(NC(=O)OCc3cccc(-c4ccccc4)c3)cc2c1C(=O)Nc1ccc(F)c(Cl)c1,HepAD38,-,>1000 µM
Cc1cc2n(-c3ccccc3)c(=O)c3c(n2n1)CN(C(=O)c1ccc(Br)c(F)c1)CC3,HepG2.117,3 d,>5 µM
Cc1c(C(=O)C(=O)NC(C)(C)c2ccncc2)c(C)n(C)c1C(=O)Nc1ccc(F)c(C(F)(F)F)c1,HepG2.2.15,-,0.001–0.0099 µM
C[C@H](NC(=O)c1c2n(c(=O)n1-c1ccc(OC3CC3)cc1)C[C@@H](C)N(C(=O)c1ccc(Br)c(Cl)c1)C2)c1ccccc1,HepG2.117,-,0.5–5 µM
CNC(=O)c1ccc(-n2c(=O)c3c(n4ncc([C@@H](C)c5ccccc5)c24)CN(C(=O)c2ccc(Br)c(C#N)c2)CC3)cc1,HepG2.117,3 d,<0.1 µM
Cn1nc2cc(NS(=O)(=O)c3cnn(Cc4ccccn4)c3)ccc2c1C(=O)Nc1ccc(F)c(Cl)c1,HepAD38,-,100–1000 µM
O=C(c1ccc(Br)c(Cl)c1)N1CCc2c(n3nc(Cc4ccccc4)cc3n(-c3ccccc3)c2=O)C1,HepG2.117,3 d,>5 µM
COc1cccc(-n2c(C(=O)NCc3ccccc3)c3n(c2=O)CCN(C(=O)c2ccc(Br)c(Cl)c2)C3)c1,HepG2.117,-,0.5–5 µM
Cc1c(C(=O)C(=O)NC2(C#CCO)COC2)c(C)n(C)c1C(=O)Nc1ccc(F)c(C#N)c1,HepG2.2.15,-,0.01–0.099 µM
C[C@@H]1Cn2c(c(C(=O)NC(C)(C)c3ccccc3)n(-c3ccc(-n4cccn4)cc3)c2=O)CN1C(=O)c1ccc(Br)c(Cl)c1,HepG2.2.15,-,0.5–5 µM
Cn1nc2cc(S(=O)(=O)NCC3CN(C(=O)OC(C)(C)C)C3)ccc2c1C(=O)Nc1ccc(F)c(Cl)c1,HepAD38,-,100–1000 µM
O=C(NCc1ccccc1)c1c2n(c(=O)n1-c1ccc(OC(F)(F)F)cc1)CCN(C(=O)c1ccc(Cl)c(Cl)c1)C2,HepG2.117,-,>5 µM
Cn1nc2cc(NS(=O)(=O)N3CCCC3)ccc2c1C(=O)Nc1ccc(F)c(Cl)c1,HepAD38,-,100–1000 µM
CCNC(=O)C(=O)N1CC[C@@H](NS(=O)(=O)c2cn(C)c(C(=O)Nc3ccc(F)c(F)c3)c2F)C(C)(C)C1,HepAD38 cells,-,<0.1 µM
C#CC1(N(COC(=O)[C@@H](N)C(C)C)C(=O)C(=O)c2c(C)c(C(=O)Nc3ccc(F)c(C#N)c3)n(C)c2C)COC1,HepG2.2.15,-,0.001–0.0099 µM
Cn1nc2cc(NCS(=O)(=O)N(CCO)CCO)ccc2c1C(=O)Nc1ccc(F)c(Cl)c1,HepAD38,-,100–1000 µM
CCS(=O)(=O)N1CC2CC1CN2S(=O)(=O)c1cn(C)c(C(=O)Nc2ccc(F)c(F)c2)c1F,HepAD38 cells,-,0.3–1 µM
C=CC1(NC(=O)C(=O)c2c(Cl)c(C(=O)Nc3ccc(F)c(C#N)c3)n(C)c2C)CC(F)(F)C1,HepG2.2.15,-,<0.001 µM
C[C@H](c1ccccc1)N1C[C@@H](O)Cn2c(c3n(c2=O)CCN(C(=O)c2ccc(Br)c(Cl)c2)C3)C1=O,HepG2.117,-,0.1–0.5 µM
CNS(=O)(=O)N1CCC(C)C(NS(=O)(=O)c2cn(C)c(C(=O)Nc3ccc(F)c(F)c3)c2F)C1,HepAD38 cells,-,<0.1 µM
Cn1nc2cc(C(=O)NCCOCCO)ccc2c1C(=O)Nc1ccc(F)c(Cl)c1,HepAD38,-,100–1000 µM
Cc1c(C(=O)C(=O)NC(C)(C)c2ccnn2C)c(C)n(C)c1C(=O)Nc1ccc(F)c(C#N)c1,HepG2.2.15,-,0.001–0.0099 µM
CNC(=O)c1ccc(-n2c(=O)c3c(n4ncc(Cc5ccccc5)c24)CN(C(=O)c2ccc(Br)c(Cl)c2)CC3)cc1Cl,HepG2.117,3 d,<0.1 µM
Cn1nc2cc(NS(=O)(=O)NCc3ccccc3)ccc2c1C(=O)Nc1ccc(F)c(Cl)c1,HepAD38,-,<100 µM
C#CC1(NC(=O)C(=O)c2c(Cl)c(C(=O)Nc3ccc(F)c(C#N)c3)n(C)c2C)CC(F)(F)C1,HepG2.2.15,-,<0.001 µM

Again, the opening 2 rows:

structure | cells | setting | result
CC(C)CNC(=O)c1cnn2c3c(c(=O)n(-c4ccccc4)c12)CCN(C(=O)c1ccc(Cl)c(Cl)c1)C3 | HepG2.117 | 3 d | >5 µM
Cc1c(C(=O)C(=O)NC2(C#CC(F)(F)F)CC(O)C2)c(C)n(C)c1C(=O)Nc1ccc(F)c(C#N)c1 | HepG2.2.15 | - | 0.1–0.999 µM

Two numbers with a dash give a range or band. Blank or dashed fields: not listed here. Rows are shuffled and stem from different studies.